Anti-infective test results gathered from many reports (values: NIAID ChemDB through PubChem).

All rows: whole-cell or culture tests; agent: Adenovirus; measure: EC50

a–b is a range or a potency band. Neighbouring rows are from separate reports. An empty or dashed field is not shown. ECn is the concentration giving n% inhibition of infection, replication or growth.

smiles,cell line,strain or isolate,read by,result
Nc1ccn(C[C@@H](CO)OCP(=O)(O)O)c(=O)n1,-,adenoid 75 (TYPE 5),cytopathic effect,45 µg/mL
Cc1cn([C@H]2C[C@H](F)[C@@H](CO)O2)c(=O)[nH]c1=O,HEL,TYPE 2,-,0.71 µM
CCCSc1nsc(-c2ccccc2)c1C(=O)O,HEP-2,TYPE 2,plaque count,>500 µg/mL
Nc1cc(OC[C@H](CO)OCP(=O)(O)O)nc(N)n1,HEL,TYPE 2,-,7.5 µM
N/C(=N/O)c1cn([C@@H]2O[C@H](CO)[C@@H](O)[C@@H]2O)c2ncnc(N)c12,HeLa,adenoid 75 (TYPE 5),plaque count,20 µM
O=c1[nH]c(=O)n([C@H]2C[C@H](O)[C@@H](CO)O2)cc1/C=C/Br,VERO,TYPE 3,plaque count,50–100 µM
NC(=S)c1cn([C@@H]2O[C@H](CO)[C@@H](O)[C@@H]2O)c2ncnc(N)c12,HeLa,adenoid 75 (TYPE 5),plaque count,1 µM
Nc1ncnc2c1ncn2C[C@H](CO)OCP(=O)(O)O,-,13306 (TYPE 8),cytopathic effect,4 µg/mL
Nc1ccn([C@@H]2C[C@@H](O)[C@H](CO)O2)c(=O)n1,A549,TYPE 1,-,>100 µM
Nc1ccn([C@@H]2C[C@@H](O)[C@H](CO)O2)c(=O)n1,A549,TYPE 1,-,>100 µM
O=C(O)/C=C/c1ccc(O)c(O)c1,BCC-1/KMC,TYPE 3,cytopathic effect,14.2 µg/mL
Nc1ncnc2c1ncn2C[C@@H](CO)OCP(=O)(O)O,HEL,TYPE 2,-,1.38 µM
N#Cc1c(SCCCBr)nsc1-c1ccccc1,HEP-2,TYPE 2,plaque count,>25 µg/mL
Nc1ccn(C[C@H]2COP(=O)(O)CO2)c(=O)n1,HEL,TYPE 2,PCR,4.1 µM
O=C(O)/C=C/c1ccc(O)cc1,BCC-1/KMC,TYPE 3,cytopathic effect,>200 µg/mL
Nc1ccnc2c1ncn2[C@H]1C=C[C@@H](OCP(=O)(O)O)O1,-,adenoid 6 (TYPE 2),cytopathic effect,17 µg/mL
O=c1c(O)c(-c2ccccc2)oc2cc(O)cc(O)c12,VERO,TYPE 2,-,>15 µg/mL
COc1cc(/C=C/C(=O)O)ccc1O,BCC-1/KMC,TYPE 8,cytopathic effect,52.5 µg/mL
Nc1ccn([C@@H]2CS[C@H](CO)O2)c(=O)n1,HEL,TYPE 2,-,>250 µM
N=C(N)c1cn([C@H]2C[C@H](O)[C@@H](CO)O2)c2ncnc(N)c12,HeLa,adenoid 75 (TYPE 5),plaque count,6 µM
O=c1c(O)c(-c2ccc(O)cc2)oc2cc(O)cc(O)c12,VERO,TYPE 2,-,10 µg/mL
NC(=O)c1ncn([C@@H]2O[C@H](CO)[C@@H](O)[C@H]2O)n1,HEL,TYPE 2,PCR,>100 µM
CSc1nsc(-c2ccccc2)c1C#N,HEP-2,TYPE 2,plaque count,>20 µg/mL
NC(=S)c1cn([C@H]2C[C@H](O)[C@@H](CO)O2)c2ncnc(N)c12,HeLa,adenoid 75 (TYPE 5),plaque count,1 µM
N#CCSc1nsc(-c2ccccc2)c1C#N,HEP-2,TYPE 2,plaque count,>10 µg/mL
CC1(C)CC[C@]2(C(=O)O)CC[C@]3(C)C(=CC[C@@H]4[C@@]5(C)CC[C@H](O)C(C)(C)[C@@H]5CC[C@]43C)[C@@H]2C1,BCC-1/KMC,TYPE 11,cytopathic effect,>40 µg/mL

2 of the rows above, restated:

smiles,cell line,strain or isolate,read by,result
Nc1ccn([C@@H]2CS[C@H](CO)O2)c(=O)n1,HEL,TYPE 2,-,>250 µM
NC(=O)c1ncn([C@@H]2O[C@H](CO)[C@@H](O)[C@H]2O)n1,HEL,TYPE 2,PCR,>100 µM